Pooled drug test results. Numbers come from NIAID ChemDB, via PubChem.

Shared fields: whole-cell or culture tests; species: Mycobacterium avium

Blank or dashed fields: not listed here.

| structure | conditions | read by | read-out | strain or isolate | result |
|---|---|---|---|---|---|
| CCC[C@@H](OC(C)=O)C1=C(Br)/C(=C/Br)OC1=O | - | - | MIC | ATCC 25291 | >128 µg/mL |
| Cc1c(F)c(N2CCNC(C)C2)c(C(F)(F)F)c2c1c(=O)c(C(=O)O)cn2C1CC1 | - | - | MIC | 1915112 | 8 µg/mL |
| COc1c(N2CCNC(C)C2)c(F)cc2c(=O)c(C(=O)O)cn(C3CC3)c12 | - | broth dilution | MBC | N-444 | 4 µg/mL |
| [C-]#[N+][C@@]1(C)C2CC[C@H]3[C@H]4[C@H](CC[C@]3(C)[N+]#[C-])[C@@H](C)C[C@@H](CC1(C)C)[C@H]24 | - | - | MIC | ATCC 25291 | 8 µg/mL |
| CCn1cc(C(=O)O)c(=O)c2cc(F)c(N3CCNCC3)nc21 | - | - | MIC50 | 22 strains | 32 µg/mL |
| C/C=C1/CN2[C@H]3C[C@@H]1[C@@H](CO)[C@@H]2Cc1c3[nH]c2ccc(OC)cc12 | - | - | MIC | Isolate 733 HIV-positive | >200 µg/mL |
| CC1CN(c2c(F)cc3c(=O)c(C(=O)O)cn(C4CC4)c3c2F)CCN1 | - | - | MIC | TMC 1403 | ≤0.25 µg/mL |
| CC1(C)[C@@H](Br)CC[C@]2(C)O[C@H]3COC(=O)C3=CC[C@@H]12 | - | - | MIC | ATCC 25291 | >128 µg/mL |
| CC1CN(c2c(F)cc3c(=O)c(C(=O)O)cn(C4CC4)c3c2F)CC(C)N1 | - | - | MIC | TMC 1403 | ≤0.25 µg/mL |
| CNc1ccc2oc(C[C@@H]3OC4(CC[C@@H]3C)O[C@H](C(C)C(=O)c3ccc[nH]3)[C@H](C)C[C@H]4C)nc2c1C(=O)O | - | resazurin | MIC | Vet 1387 | 12.5 µg/mL |
| CCN(CC)c1nc2c(s1)c1c(O)c3c(O)c(C)c4c(c32)C(=O)[C@@](C)(O/C=C/[C@H](OC)[C@@H](C)[C@@H](OC(C)=O)[C@H](C)[C@H](O)[C@H](C)[C@@H](O)[C@@H](C)/C=C/C=C(/C)C(=O)N1)O4 | - | - | MBC | 9141 | 4 µg/mL |
| NC[C@@H]1O[C@H](O[C@H]2[C@@H](O)[C@H](O[C@@H]3[C@@H](O)[C@H](N)C[C@H](N)[C@H]3O[C@H]3O[C@H](CO)[C@@H](O)[C@H](O)[C@H]3N)O[C@@H]2CO)[C@H](N)[C@@H](O)[C@@H]1O | - | - | Mean MIC | ATCC 25291 | 11.5 µg/mL |
| CO[C@H]1/C=C/O[C@@]2(C)Oc3c(C)c(O)c4c(O)c(c(/C=N/N5CCN(C)CC5)c(O)c4c3C2=O)NC(=O)/C(C)=C\C=C\[C@H](C)[C@H](O)[C@@H](C)[C@@H](O)[C@@H](C)[C@H](OC(C)=O)[C@@H]1C | - | - | Mean MIC | 4 strains | 45.3 µg/mL |
| CCC(CO)NC[C@H]1O[C@H](CO)[C@@H](O)[C@@H]1O | - | - | MIC | 3 to 5 strains | >128 µg/mL |
| CO[C@H]1/C=C/O[C@@]2(C)Oc3c(C)c(O)c4c(=O)c(c5oc6cc(N7CCN(CC(C)C)CC7)cc(=O)c6nc5c4c3=C2O)NC(=O)/C(C)=C\C=C\[C@H](C)[C@H](O)[C@@H](C)[C@@H](O)[C@@H](C)[C@H](OC(C)=O)[C@@H]1C | - | - | MIC | 3010 | 0.062 µg/mL |
| CCNCC1CCN(c2c(F)cc3c(=O)c(C(=O)O)cn(CC)c3c2F)C1 | - | - | MIC90 | 22 strains | >64 µg/mL |
| CCC(CO)NC[C@@H]1N[C@H](CO)[C@@H](O)[C@@H]1O | - | - | MIC | 3 to 5 strains | >128 µg/mL |
| CO[C@H]1/C=C/O[C@@]2(C)Oc3c(C)c(O)c4c(O)c(c(/C=N/N5CCN(C)CC5)c(O)c4c3C2=O)NC(=O)/C(C)=C\C=C\[C@H](C)[C@H](O)[C@@H](C)[C@@H](O)[C@@H](C)[C@H](OC(C)=O)[C@@H]1C | - | resazurin | EC50 | - | >200 µg/mL |
| C[C@H]1COc2c(N3CC(C)(N)C3)c(F)cc3c(=O)c(C(=O)O)cn1c23 | - | - | Mean MIC | 4 strains | 20.3 µg/mL |
| CC[C@H]1C[C@H]2C[C@H]3c4[nH]c5ccc(OC)cc5c4CCN(C2)[C@@H]13 | - | - | MIC | Isolate 733 HIV-positive | >200 µg/mL |
| CCCCCCCCCSC[C@@H]1N[C@H](CO)[C@@H](O)[C@@H]1O | - | - | MIC | 3 to 5 strains | 32–128 µg/mL |
| CCC[C@@H](OC(C)=O)C1=C(Br)[C@@](CI)(OC)OC1=O | - | - | MIC | ATCC 25291 | >128 µg/mL |
| CN[C@@H]1[C@@H](O)[C@@H](O[C@@H]2[C@@H](O)[C@H](O[C@H]3O[C@H](CN)CC[C@H]3N)[C@@H](N)C[C@H]2N)OC[C@]1(C)O | - | - | Mean MIC | ATCC 25291 | 5 µg/mL |
| CCOc1ccc(NC(C)=O)cc1 | - | - | MBC | MAC104 | 3200 µg/mL |
| CC(C)(O)[C@H](O)COc1c2occc2cc2ccc(=O)oc12 | - | - | MIC | Isolate 733 HIV-positive | 200 µg/mL |
| S=C(N=Nc1ccccc1)NNc1ccccc1 | - | - | MIC | MAC104 | 400 µg/mL |
| CC[C@@H](C(=O)[C@@H](C)[C@@H](O)[C@H](C)[C@@H]1O[C@@H]([C@@H](CC)C(=O)O)CC[C@@H]1C)[C@H]1O[C@@]2(C=C[C@@H](O)[C@@]3(CC[C@@](C)([C@H]4CC[C@](O)(CC)[C@H](C)O4)O3)O2)[C@H](C)C[C@@H]1C | - | resazurin | MIC | Vet 1387 | 10 µg/mL |
| NC[C@H]1O[C@H](O[C@H]2[C@H](O)[C@@H](O[C@H]3O[C@H](CO)[C@@H](O)[C@H](N)[C@H]3O)[C@H](N)C[C@@H]2N)[C@H](N)C[C@@H]1O | - | - | Mean MIC | ATCC 25291 | 4 µg/mL |
| O=C(O)c1cccc2ccccc12 | - | - | MBC | MAC104 | 3200 µg/mL |
| C[C@H]1COc2c(N3CC[C@H](N)C3)c(F)cc3c(=O)c(C(=O)O)cn1c23 | - | - | Mean MIC | 4 strains | 15.6 µg/mL |
| CC1(C)[C@@H](Br)CC[C@]2(C)O[C@H]3COC(=O)C3=C[C@@H](O)[C@@H]12 | - | - | MIC | ATCC 25291 | >128 µg/mL |
| NCC[C@H](O)C(=O)N[C@@H]1C[C@H](N)[C@@H](O[C@H]2O[C@H](CN)[C@@H](O)[C@H](O)[C@H]2O)[C@H](O)[C@H]1O[C@H]1O[C@H](CO)[C@@H](O)[C@H](N)[C@H]1O | - | - | Median MIC | ATCC 25291 | 5 µg/mL |
| CCn1cc(C(=O)O)c(=O)c2cc(F)c(-n3cccc3)cc21 | - | - | MIC50 | 22 strains | 32 µg/mL |
| O=C(O)c1cn(C2CC2)c2c(F)c(N3CCS(=O)CC3)c(F)cc2c1=O | - | - | MIC | 1915112 | 2–4 µg/mL |
| COc1ccc2ccc(=O)oc2c1CC(=O)C(C)C | - | - | MIC | Isolate 733 HIV-positive | >200 µg/mL |
| C[C@H]1COc2c(N3C[C@@H](N)C(C)(C)C3)c(F)cc3c(=O)c(C(=O)O)cn1c23 | - | - | Mean MIC | 4 strains | 5.5 µg/mL |
| O=C(O)c1cn(C2CC2)c2c(F)c(N3CCN4CCC3C4)c(F)cc2c1=O | - | - | MIC | 1915112 | ≤4 µg/mL |
| C[C@](Cl)([C@@H](Br)/C=C/[C@](C)(Cl)CBr)[C@@H](Br)CCl | - | - | MIC | ATCC 25291 | >128 µg/mL |
| C[C@H]1COc2c(N3CCN(C)CC3)c(F)cc3c(=O)c(C(=O)O)cn1c23 | - | broth dilution | MIC | N-444 | 16 µg/mL |
| CC1COc2c(N3CCN(C)CC3)c(F)cc3c(=O)c(C(=O)O)cn1c23 | - | - | MIC90 | 13 strains | 64 µg/mL |
| CCCCN1[C@H](CO)[C@@H](O)[C@H](O)[C@@H]1CO | - | - | MIC | 3 to 5 strains | >128 µg/mL |
| NNC(=O)c1ccncc1 | - | - | Mean MIC | 4 strains | 4.7 µg/mL |
| CCCc1c2c([nH]c(=O)c1C)C(=O)c1[nH]c(=O)c(C)c(CCC)c1C2=O | - | resazurin / fluorescence | MIC90 | ATCC 15769 | 3.85 µg/mL |
| CCC[C@@H](O)C1=C(Br)/C(=C/Br)OC1=O | - | - | MIC | ATCC 25291 | >128 µg/mL |
| CC[C@H]1OC(=O)[C@H](C)[C@@H](O[C@H]2C[C@@](C)(OC)[C@@H](O)[C@H](C)O2)[C@H](C)[C@@H](O[C@@H]2O[C@H](C)C[C@H](N(C)C)[C@H]2O)[C@](C)(OC)C[C@@H](C)C(=O)[C@H](C)[C@@H](O)[C@]1(C)O | pH 7.4 | broth dilution / radiometric | MIC | 800 | 2 µg/mL |

The last 5 rows once more:

structure | conditions | read by | read-out | strain or isolate | result
CCCCN1[C@H](CO)[C@@H](O)[C@H](O)[C@@H]1CO | - | - | MIC | 3 to 5 strains | >128 µg/mL
NNC(=O)c1ccncc1 | - | - | Mean MIC | 4 strains | 4.7 µg/mL
CCCc1c2c([nH]c(=O)c1C)C(=O)c1[nH]c(=O)c(C)c(CCC)c1C2=O | - | resazurin / fluorescence | MIC90 | ATCC 15769 | 3.85 µg/mL
CCC[C@@H](O)C1=C(Br)/C(=C/Br)OC1=O | - | - | MIC | ATCC 25291 | >128 µg/mL
CC[C@H]1OC(=O)[C@H](C)[C@@H](O[C@H]2C[C@@](C)(OC)[C@@H](O)[C@H](C)O2)[C@H](C)[C@@H](O[C@@H]2O[C@H](C)C[C@H](N(C)C)[C@H]2O)[C@](C)(OC)C[C@@H](C)C(=O)[C@H](C)[C@@H](O)[C@]1(C)O | pH 7.4 | broth dilution / radiometric | MIC | 800 | 2 µg/mL

Two numbers with a dash give a range or band. A number after MIC or MFC names an inhibition level or a share of isolates. Rows are shuffled and stem from different studies. ECn is the concentration giving n% inhibition of infection, replication or growth.